According to the supplement of paper PMC10515830:
This is a selection; strong and weak results do not stand in their true shares.

Columns and labels:
Conditions in all cases: 10 µM; exposure time 6 h
[1] = tested on: Danio rerio larvae (5 dpf); experiment: difference in excitability vs DMSO (percentage points); higher = more excitable than DMSO
How it was run: (§1)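 In 96-well plates, 48 wild-type zebrafish larvae aged 5 dpf per compound received 100 µL egg water with library compound at 10 µM final for 6 h. Three hours into this, a 3-h programme of moving lines and 100 ms, 400Hz tones ran at 28.5 ℃ while plates were photographed every 6 s. Z-LaP Tracker scored the behaviours, and each is given as the compound mean minus the vehicle control mean in percentage points.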

[2] = tested on: Danio rerio larvae (5 dpf); experiment: difference in startle response vs DMSO (percentage points); higher = stronger startle than DMSO
How it was run: as §1

[3] = tested on: Danio rerio larvae (5 dpf); experiment: difference in activity during first hour vs DMSO (percentage points); higher = more activity than DMSO
How it was run: as §1

[4] = tested on: Danio rerio larvae (5 dpf); experiment: difference in habituation to acoustic stimuli vs DMSO (percentage points); higher = more habituation than DMSO
How it was run: as §1

[5] = tested on: Danio rerio larvae (5 dpf); experiment: difference in combined optomotor response to red, green and blue moving lines vs DMSO (percentage points); higher = stronger optomotor response than DMSO
How it was run: as §1

Q: With `CCOP(=O)(OCC)SCC[N+](C)(C)C` [Echothiophate (iodide)] as the molecule, how does the difference in excitability [1] read?
A: 4.06

Q: And the “difference in startle response” value [2]?
A: -2.32

Q: What about the “difference in activity during first hour” value [3] of the same molecule?
A: 3.24

Q: And the “difference in habituation to acoustic stimuli” value [4]?
A: 0.454

Q: And the difference [5]?
A: 0.422
